Reference: paper PMC9837764 (Nature Communications, 2023)

Test system: SARS-CoV-2
Experiment: Virus passage under drug and genome sequencing (mutation profile)
Conditions: four passages in Calu-3, drug at 5 mM; samples #1-#4

Q: Which “Mutations C:C (Fig2F source data)” value does the source give for `CC(C)C(=O)OC[C@H]1O[C@@H](n2ccc(NO)nc2=O)[C@H](O)[C@@H]1O` [MK-4482, molnupiravir, reference compound] here?
A: 0.0

Q: What about the “Mutations T:T (Fig2F source data)” value of the same compound?
A: 0.0
